Two compounds from article PMC8619001, “Discovery of New Ginsenol-Like Compounds with High Antiviral Activity” (Molecules, 2021) can be followed below.

The structures appear in SMILES notation. pIC50: −log10 of the molar value.

Assay [1] relates to influenza virus A/Puerto Rico/8/34 (H1N1). Description: CPE reduction (cytoprotection) assay in MDCK cells. Type of assay: cell-based. To be noted: ratio CC50/IC50, A/Puerto Rico/8/34 (H1N1).
The test system of assay [2] is A/California/7/2009 (H1N1) pdm09. The experiment in a line: Cytoprotection assay in MDCK cells. It is filed as cell-based, influenza virus A/California/07/09 (H1N1)pdm09. To be noted: ratio CC50/IC50, A/California/7/2009 (H1N1) pdm09.
The test system of assay [3] is A/Vladivostok/2/2009 (H1N1). The experiment in a line: Cytoprotection assay in MDCK cells. Type of assay: cell-based. To be noted: ratio CC50/IC50, A/Vladivostok/2/2009 (H1N1).
A further assay relates to A/Anhui/1/2013 (H7N9). The experiment in a line: Cytoprotection assay in MDCK cells. Type of assay: cell-based, influenza virus A/Anhui/1/2013 (H7N9). To be noted: ratio CC50/IC50, A/Anhui/1/2013 (H7N9).
The test system of assay [4] is A/Mallard/Pennsylvania/1984 (H5N2). Description: Cytoprotection assay in MDCK cells. Type of assay: cell-based, influenza virus A/mallard/Pennsylvania/10218/84 (H5N2). To be noted: ratio CC50/IC50, A/Mallard/Pennsylvania/1984 (H5N2).
In assay [5] the test system is B/Florida/4/2006 (Yamagata-like). The experiment in a line: Cytoprotection assay in MDCK cells. It is filed as cell-based, influenza virus B/Florida/4/2006 (Yamagata-like). To be noted: ratio CC50/IC50, B/Florida/4/2006 (Yamagata-like).
Assay [6] concerns influenza virus A/Puerto Rico/8/34 (H1N1), control virus (C).

Take `CCOC(=O)C1=C[C@@H](OC(CC)CC)[C@H](NC(C)=O)[C@@H](N)C1` [Oseltamivir, reference compound]: the SI in assay [1] is 645.

For orientation: pIC50 means the negative decadic logarithm of the IC50, by convention in mol/L. A high value points to a small IC50. For `CC(=O)NC12CC(C)(C)C3CCC1(C)CCCC32C` [Compound 1a, (1S,3aR,4R,7aS)-N-(2,2,4,7a-tetramethyloctahydro-1,4-etanoinden-3a-yl)-acetamide], the SI in assay [1] is on record as 7500; in assay [2] it was 107; in assay [3], 3000; with A/Anhui/1/2013 (H7N9), 9; in assay [4], 9; in assay [5] it was 1. In assay [6], the negative-log IC50 (pIC50) was 4.63.
